In publication PMC7900799, “Synthesis, antibiotic structure–activity relationships, and cellulose dissolution studies of new room-temperature ionic liquids derived from lignin” (Biotechnology for Biofuels, 2021):

Assay: Cellulose dissolution in ILs (gravimetric, light microscopy, FTIR)
Format: physicochemical
Settings: for cellulose concentration at which cellulose precipitation was observed: 100 °C, 20 min incubation, light microscopy

Structure (SMILES) | cellulose concentration at which cellulose precipitation was observed [wt%] | ability to dissolve and decrease the crystallinity of cellulose (light microscopy and FTIR, 2 wt% cellulose)
CC(=O)[O-].CC[N+](C)(CC)Cc1ccc(OC)c(OC)c1 [Compound 9, N-(3,4-Dimethoxybenzyl)-N-ethyl-N-methylethanaminium acetate] | 2 | slightly less effective cellulose dissolution and decrystallization
CCC[N+](C)(CCC)Cc1ccc(OC)c(OC)c1 [Compound 10, N-(3,4-Dimethoxybenzyl)-N-methyl-N-propylpropan-1-ammonium acetate] | 2 | –
